A mixed list of measured activities; the numbers were collected in NIAID ChemDB.

Shared fields: growth or infection tests; agent: HIV-1; cell line: MT-4; measure: EC50

ECn: concentration that inhibits the pathogen or its effect by n%. Blank or dashed fields: not listed here. Neighbouring rows are from separate reports.

compound	strain	changes	read by	value
c1ccc(-c2nnc3n2-c2ccccc2-n2c(-c4ccccc4)nnc2C3N2CCOCC2)cc1	IIIB	-	cytopathic effect / MTT	>32 µM
Cc1cn([C@H]2C[C@H](N=[N+]=[N-])[C@@H](COP(=O)(Oc3ccccc3)C(O)c3ccc(Cl)cc3)O2)c(=O)[nH]c1=O	IIIB	-	cytopathic effect / MTT	0.05 µM
CC(=O)OCCOCn1cc(C=O)c2ccccc21	-	-	-	>200 µM
COc1ccc(OP(=O)(OC[C@H]2O[C@@H](n3cc(C)c(=O)[nH]c3=O)C[C@@H]2N=[N+]=[N-])C(O)c2cccnc2)cc1	IIIB	-	cytopathic effect / MTT	0.01 µM
Cc1cn([C@H]2C[C@H](N=[N+]=[N-])[C@@H](CO)O2)c(=O)[nH]c1=O	IIIB	-	p24	0.007 µM
CC[C@H]1[C@@H]2C[C@H]3[C@@H]4N(C)c5ccccc5[C@]45C[C@@H]([C@@H]2[C@H]5O)N3[C@@H]1O	LAV	-	-	>10 µg/mL
COc1c(O)c(Br)c2c(c1OC)-c1c(c(Br)c(O)c(OC)c1OC)C[C@H](C)[C@H](C)C2	IIIB	-	-	0.81 µM
C[C@H](CC(=O)C[C@@H](C)[C@H]1C[C@H](O)[C@@]2(C)C3=C(C(=O)C[C@]12C)[C@@]1(C)CCC(=O)C(C)(C)[C@@H]1C[C@@H]3O)C(=O)O	-	-	cytopathic effect / microscopy	~1000 µM
Nc1ccn([C@H]2CC[C@@H](CO)O2)c(=O)n1	HXB2-D65(RT-K65R)	RT-K65R	p24	5.6 µM
ClC1c2nnc(-c3ccccc3)n2-c2ccccc2-n2c(-c3ccccc3)nnc21	IIIB	-	cytopathic effect / MTT	>3 µM
C[N+]1(C)CCCC(OC(=O)C(O)(c2ccccc2)c2ccccc2)C1	LAV	-	-	>100 µg/mL
N#Cc1cn([C@H]2C=C[C@@H](CO)O2)c2ncnc(N)c12	IIIB	-	cytopathic effect / trypan blue	14 µM
C[C@@H]1[C@H](O)[C@@H](C)/C=C/C=C/C=C/C=C/C=C/C=C/C=C/[C@H](O[C@@H]2O[C@H](C)[C@@H](O)[C@H](N)[C@@H]2O)CC2O[C@](O)(CC(O)C(O)CCC(O)CC(O)CC(O)CC(=O)O[C@H]1C)CC(O)C2C(=O)O.O=S(=O)(O)O	KK-1	-	cytopathic effect	<7.8 µg/mL
C=C(/C=C/P(=O)(O)O)CCn1cnc2c(=O)[nH]c(N)nc21	RF	-	cytopathic effect / MTT	49 µM
Nc1ncnc2c1ncn2[C@H]1C[C@@H](F)[C@@H](CO)O1	IIIB	-	cytopathic effect / trypan blue	271 µM
Cc1cn([C@H]2C[C@H](N=[N+]=[N-])[C@@H](COP(=O)(Oc3ccccc3)C(O)c3ccccc3)O2)c(=O)[nH]c1=O	IIIB	-	cytopathic effect / MTT	0.06 µM
Nc1ncnc2c1ncn2CCOCP(=O)(O)O	RF	-	cytopathic effect / MTT	20 µM
CC(=O)OCCOCn1c(-c2ccccc2)c([N+](=O)[O-])c2ccccc21	-	-	-	>200 µM
COc1cccc(-c2nnc3n2-c2ccccc2-n2c(-c4cccc(OC)c4)nnc2C3C)c1	IIIB	-	cytopathic effect / MTT	>200 µM
O=[N+]([O-])c1c(-c2ccccn2)n(COCCO)c2ccccc12	-	-	-	>200 µM
CC(=O)OC1C(=O)C2=C(C(=O)CC3C(C)(C)[C@@H](O)CC[C@]23C)[C@]2(C)[C@H](O)C[C@H]([C@H](C)CC(=O)CC(C)C(=O)O)[C@@]12C	-	-	cytopathic effect / microscopy	>1000 µM
Cc1cn([C@H]2C[C@H](N=[N+]=[N-])[C@@H](COP(=O)(Oc3ccccc3)C(O)c3ccc([N+](=O)[O-])cc3)O2)c(=O)[nH]c1=O	IIIB	-	cytopathic effect / MTT	0.05 µM
CC(C)[C@H](NC(=O)c1ccccn1)C(=O)N[C@@H](Cc1ccccc1)[C@H](O)[C@H](O)[C@H](Cc1ccccc1)NC(=O)[C@@H](NC(=O)c1ccccn1)C(C)C	NL4-3	-	p24	2 µM
COc1cc([C@H]2c3c(cc(OC)c(OC)c3OC)C[C@@H](C)[C@@H]2C)cc(C)c1OC	IIIB	-	cytopathic effect / MTT	3.2 µM
Cc1ccnc2c1NC(=O)c1cccnc1N2C1CC1	92BR014 (subtype B)	-	MTT	0.01 µg/mL
Cc1cn([C@H]2C[C@H](N=[N+]=[N-])[C@@H](COP(=O)(OCc3ccc([N+](=O)[O-])cc3)Oc3ccccc3)O2)c(=O)[nH]c1=O	IIIB	-	cytopathic effect / MTT	0.01 µM
O=Cc1cn(COCCO)c2ccccc12	-	-	-	>200 µM
CC(=O)O[C@@H]1C(=O)C2=C(C(=O)C[C@H]3C(C)(C)[C@@H](O)CC[C@]23C)[C@]2(C)C(=O)C[C@H]([C@@H](C)CC(=O)C[C@@H](C)C(=O)O)[C@@]12C	-	-	cytopathic effect / microscopy	>1000 µM
COc1cc2c(cc1OC)[C@H]1[C@H]3C(=CC[C@H]1OC2=O)CCN3C	IIIB	-	cytopathic effect / MTT	7.3 µg/mL
NC(CC(=O)O)C(=O)O	LAV	-	-	>100 µg/mL
N#Cc1cn([C@H]2CC[C@@H](CO)O2)c2ncnc(N)c12	IIIB	-	cytopathic effect / trypan blue	8.5 µM
Cc1cn([C@H]2C[C@H](N=[N+]=[N-])[C@@H](CO)O2)c(=O)[nH]c1=O	-	-	-	>0.01 µM
CC1c2nnc(Cc3ccccc3)n2-c2ccccc2-n2c(Cc3ccccc3)nnc21	IIIB	-	cytopathic effect / MTT	>200 µM
CC(=O)c1cn(COCCO)c2ccccc12	-	-	-	>200 µM
ClC1(Cl)c2nnc(-c3ccccc3)n2-c2ccccc2-n2c(-c3ccccc3)nnc21	IIIB	-	cytopathic effect / MTT	>30 µM
CNC(=O)OCc1cccc(COC(=O)NC)n1	LAV	-	-	>100 µg/mL
C[C@H](CCC=C(CO)CO)[C@H]1C[C@H](O)[C@@]2(C)C3=CC[C@H]4C(C)(C)C(=O)CC[C@]4(C)C3=CC[C@]12C	-	-	cytopathic effect / microscopy	~7.8 µM
Cc1ccnc2c1NC(=O)c1cccnc1N2C1CC1	-	RT-K70R K103N	-	<3 µM
CN1CCN(C2c3nnc(-c4ccccc4)n3-c3ccccc3-n3c(-c4ccccc4)nnc32)CC1	IIIB	-	cytopathic effect / MTT	>126 µM
COc1ccc(C(O)P(=O)(OC[C@H]2O[C@@H](n3cc(C)c(=O)[nH]c3=O)C[C@@H]2N=[N+]=[N-])Oc2ccccc2)cc1	IIIB	-	cytopathic effect / MTT	0.04 µM
O[C@H]1[C@H]2c3cc4c(cc3CN3CCC(=C[C@@H]1O)[C@H]23)OCO4	IIIB	-	p24	0.4 µg/mL
NS(=O)(=O)c1cc2c(cc1Cl)NC(C(Cl)Cl)NS2(=O)=O	LAV	-	-	>100 µg/mL
Cc1cn([C@H]2C[C@H](N=[N+]=[N-])[C@@H](CO)O2)c(=O)[nH]c1=O	IIIB	-	-	0.03 µM
CC(=O)S[C@@H]1CC2=CC(=O)CC[C@]2(C)[C@H]2CC[C@H]3[C@@H](CC[C@@]34CCC(=O)O4)[C@H]12	LAV	-	-	>100 µg/mL
Cc1ccnc2c1NC(=O)c1cccnc1N2C1CC1	IIIB	-	cytopathic effect / MTT	0.05 µM
O=C(CCCN1CCC(O)(c2ccc(Cl)cc2)CC1)c1ccc(F)cc1	LAV	-	-	>10 µg/mL
C[C@H](CC(=O)C[C@@H](C)[C@H]1CC(=O)[C@@]2(C)C3=C(C(=O)C[C@]12C)[C@@]1(C)CC[C@H](O)C(C)(C)[C@@H]1C[C@@H]3O)C(=O)O	-	-	cytopathic effect / microscopy	>1000 µM
c1ccc2c(c1)ncc1cc3c(cc12)OCO3	IIIB	-	RT activity	5 µg/mL
CN(C)CCOC(=O)COc1ccc(Cl)cc1	LAV	-	-	>100 µg/mL

4 of the rows above, restated:

| compound | strain | changes | read by | value |
|---|---|---|---|---|
| NS(=O)(=O)c1cc2c(cc1Cl)NC(C(Cl)Cl)NS2(=O)=O | LAV | - | - | >100 µg/mL |
| CC[C@H]1[C@@H]2C[C@H]3[C@@H]4N(C)c5ccccc5[C@]45C[C@@H]([C@@H]2[C@H]5O)N3[C@@H]1O | LAV | - | - | >10 µg/mL |
| Cc1ccnc2c1NC(=O)c1cccnc1N2C1CC1 | - | RT-K70R K103N | - | <3 µM |
| c1ccc(-c2nnc3n2-c2ccccc2-n2c(-c4ccccc4)nnc2C3N2CCOCC2)cc1 | IIIB | - | cytopathic effect / MTT | >32 µM |